# Measurements reported in PubChem BioAssay AID624099 (ICCB-Longwood, 2012)
# Aim: 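Knock-downs relieving repression by E2 of an HPV18 LCR luciferase reporter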 (primary screen)
# System: human C33A cervical carcinoma cells (HPV-negative) stably expressing BPV1 E2 and an HPV18 LCR luciferase reporter
# Knock-down reagent: siRNA pool against human genes, 40 nM
# Timing: 72 h
# Read-out: 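Per-well luciferase luminescence, z-scored on each plate against the plate mean and SD with control wells left out, then averaged across three replicate plates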
# Direction: mean z-score and z-score: higher = stronger reporter signal, weaker E2 silencing
# Hit rule: 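Mean z ≥ 2 together with z ≥ 2 in two or more of the three replicates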
# The deposit covers about 21,000 reagents; this is a random part of them. 497 of all reagents (2.4%) count as active. 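Higher z means weaker E2 silencing; only reporter increases were scored, and knock-downs that hurt cell survival may mask genuine repressor factors.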 Unmarked entries are inactive.
The opening 4 entries, ahead of the listing:
Gene,PubChem SID,mean z-score,"z-score, replicate A","z-score, replicate B","z-score, replicate C"
ZNF320,SID134328933,-0.41,-0.43,-0.31,-0.5
H2BW1,SID134326167,0.58,0.65,0.67,0.42
VAMP8,SID134317726,0.18,0.09,0.15,0.29
LOC728510 (retired record),SID134326926,0.1,-0.11,0.03,0.38

The listing, from the first entry:
Gene,PubChem SID,mean z-score,"z-score, replicate A","z-score, replicate B","z-score, replicate C"
ZNF320,SID134328933,-0.41,-0.43,-0.31,-0.5
H2BW1,SID134326167,0.58,0.65,0.67,0.42
VAMP8,SID134317726,0.18,0.09,0.15,0.29
LOC728510 (retired record),SID134326926,0.1,-0.11,0.03,0.38
ST8SIA2,SID134316481,-0.43,-0.37,-0.54,-0.37
ELMOD1,SID134318019,0.17,0.14,0.28,0.11
LOC285479 (retired record),SID134325992,-0.74,-0.81,-0.94,-0.47
DHRS7C,SID134325583,0.15,0.25,-0.22,0.41
KDM3B,SID134324089,2.36 (active),2.61,2.41,2.05
SLC8A2,SID134312667,-1.36,-1.04,-1.39,-1.65
PDGFC,SID134317388,-0.63,-0.89,-0.43,-0.58
BMPR2,SID56478998,0.34,0.38,0.47,0.19
CAV3,SID134315583,-0.64,-0.55,-0.79,-0.59
STAC,SID134323501,1.31,1.18,1.27,1.48
MARCHF10,SID134312271,-0.97,-0.92,-1.16,-0.84
FLJ46211 (retired record),SID134329643,-0.24,-0.21,-0.13,-0.38
IKZF4,SID134312173,-1.31,-1.06,-1.4,-1.46
LOC389237 (retired record),SID134327432,-0.99,-1.27,-1.09,-0.59
LINC00472,SID134324881,-0.2,0,-0.53,-0.07
PRELID1,SID134321572,0.09,0.44,-0.08,-0.08
STAC2,SID134326864,-1.39,-1.37,-1.31,-1.5
E2F1,SID56478616,-1.15,-1.44,-1,-1
MEMO1P1,SID134329064,-1.14,-0.99,-1.21,-1.22
DOCK4,SID134321867,-0.56,-0.7,-0.49,-0.48
PNKP,SID56479144,0.79,0.73,0.64,1
TMEM41A,SID134319293,-0.24,-0.29,-0.35,-0.07
TSFM,SID134320334,0.5,0.44,0.31,0.75
PRUNE1,SID134318007,1.03,1.37,0.68,1.05
SLC35D2,SID134315197,0.5,0.29,0.38,0.82
PXN,SID134310780,0.67,0.66,0.34,1.01
FLJ45684 (retired record),SID134329619,0.06,0.24,-0.06,0
SAA4,SID134317003,-0.06,-0.41,0.14,0.1
SEC22B,SID134316272,1.12,0.89,1.38,1.1
PEX10,SID134311867,0.24,0.53,0.06,0.12
DLG5,SID134313365,0.69,0.85,0.55,0.66
ADGRG3,SID134311049,1,1.08,1.07,0.84
CLPSL2,SID134329563,-0.86,-1.11,-0.89,-0.58
TCTN2,SID134322042,0.84,1.13,1.08,0.29
SUPT5H,SID134320234,-2.12,-2.01,-2.07,-2.29
CDS1,SID134313538,0.35,0.03,0.68,0.35
COL28A1,SID134326308,0.28,0.37,0.1,0.38
COL28A1,SID134326374,-0.23,-0.35,0.04,-0.4
COL28A1,SID134327831,0.6,0.43,0.65,0.71
ID4,SID134313755,0.56,0.73,0.28,0.66
SLCO1B7,SID134328385,-0.14,-0.3,-0.08,-0.03
SEC23IP,SID134316646,-0.75,-0.76,-0.81,-0.68
KCNV1,SID134311696,-0.09,0.22,-0.2,-0.27
UBL5,SID134318485,0.38,0.47,0.35,0.34
ETV6,SID134315010,4.61 (active),4.75,4.57,4.52
TRHDE,SID134310251,-0.42,-0.56,-0.73,0.05
IGSF6,SID134323742,-0.37,-0.1,-0.48,-0.52
PLK4,SID56478966,-0.99,-1.11,-0.81,-1.06
CABS1,SID134322493,1.17,1.6,0.75,1.17
ZNHIT2,SID134313796,-0.49,-0.95,-0.19,-0.32
DYNC2H1,SID134326564,-0.04,0.2,-0.01,-0.32
BAZ2B,SID134324181,1.01,0.45,0.9,1.67
TSLIG1,SID134321816,-1.84,-1.77,-1.69,-2.07
ELF3,SID134320091,0.21,0.59,0.35,-0.32
CD19,SID134321506,-1.18,-1.14,-1.26,-1.15
PROM1,SID134315125,0.04,0.15,-0.03,0
RPF2P1,SID134322021,0.5,0.77,0.65,0.08
LRRC74A,SID134323119,2.06 (active),2.24,1.77,2.18
SMNDC1,SID134320257,0.3,0.43,0.22,0.26
SOX2,SID134316096,2.57 (active),2.73,2.69,2.28
MYOM1,SID134311742,0.67,0.58,0.75,0.7
HTR3A,SID134311622,-0.06,0,0.06,-0.23
PCBP4,SID134317435,-0.08,-0.04,-0.18,-0.01
LINC01684,SID134329625,0.35,0.03,0.83,0.18
LOC389172 (retired record),SID134327389,-1.29,-1.29,-1.27,-1.3
PRSS16,SID134311434,0.28,0.62,0.22,0
RSPO1,SID134322058,-0.16,-0.31,0.09,-0.25
TMUB2,SID134318473,0.33,0.34,0.39,0.25
LSMEM2,SID134320707,-0.33,0.06,-0.56,-0.48
